According to patent publication US20130274352A1, “Oral Drug Devices and Drug Formulations” (The Regents of the University of California, priority 2009, published 2013):

Test system: Caco-2 cells
Test: Overall potential (OP = EP − TP)
Format: cell-based, human
Details: for OP: single CPE

With `O=C1CCCCCN1` [CL, Caprolactam] the OP (Conc. 1%) was 0.48.

`CCCCCCCCCCCC(=O)N(C)CC(=O)[O-].[Na+]` [NLS, N-Lauryl sarcosinate] showed an OP (Conc. 0.01%) of 0.51.

In the case of `CCCCCCCCCCCCOS(=O)(=O)[O-].[Na+]` [SLS, Sodium lauryl sulfate], the OP (Conc. 0.01%) was 0.70.

For Sodium laureth sulfate [SLA], the “concentration of maximum in OP” value (14 discrete concentrations, FIG. 2D) was 0.02% and the OP (Conc. 0.01%) was 0.59.
